Pooled drug test results. Numbers come from NIAID ChemDB, via PubChem.

Shared fields: whole-cell or culture tests; species: Varicella zoster virus; read by: plaque count; endpoint: EC50

Lines come from different laboratories, so protocols vary.

structure	cells	strain or isolate	value
CO[C@H]1C[C@H](n2cc(/C=C/Br)c(=O)[nH]c2=O)O[C@@H]1COP1(=O)OCc2cccc(C)c2O1	HELF	OKA	24 µg/mL
NC1=NC2C(C=CN2CC(CO)CCO)C(=O)N1	MRC-5	32	0.72 µM
Nc1ncnc2c1ncn2[C@H]1C[C@]12C[C@H]2CO	HFF	-	245 µM
CCCCCCCCCCc1cc2cn([C@H]3C[C@H](O)[C@@H](CO)O3)c(=O)nc2n1C	HEL	YS/R (TK-)	>20 µM
CC1(C)[C@@H](CCO)C[C@H]1n1cnc2c(=O)[nH]cnc21	HEL	TK+/YS	>50 µg/mL
CCCc1ccc(OCCCc2cc3cn([C@H]4C[C@H](O)[C@@H](CO)O4)c(=O)nc3o2)cc1	HEL	(TK-)07/1	>50 µM
O=c1nc2oc(CCOC3CCCCO3)cc2cn1[C@H]1C[C@H](O)[C@@H](CO)O1	HEL	OKA	>40 µM
Nc1nc2c(ncn2[C@@H]2C[C@H](CO)[C@H]2CO)c(=O)[nH]1	WI-38	ELLEN	0.2 µM
CCCCCCCCCCCCc1cc2cn([C@H]3C[C@H](O)[C@@H](CO)O3)c(=O)nc2o1	HEL	07/1 (TK-)	>20 µM
O[C@@H]1[C@H](O)[C@H](O)CO[C@H]1n1c(Br)nc2cc(Cl)c(Cl)cc21	HFF	-	>50 µM
Nc1nc2c(ncn2C[C@]2(CO)C[C@H]2CO)c(=O)[nH]1	HEL	5 isolates	0.77 µg/mL
CC(C)Nc1nc2cc(Cl)c(Cl)cc2n1[C@H]1O[C@@H](CO)[C@H](O)[C@@H]1O	HFF	-	>266 µM
CC(C)C[C@H](NC(=O)n1nnc2ccccc21)C(=O)NCC1CCCCC1	HEL	(TK+)/OKA	>16 µg/mL
CCCCCCCCCCCCc1cc2cn([C@H]3C[C@H](O)[C@@H](CO)O3)c(=O)nc2o1	HEL	07 (TK-)	>50 µM
O=c1nc2oc(CCCC3OCCO3)cc2cn1[C@H]1C[C@H](O)[C@@H](CO)O1	HEL	OKA	>200 µM
CCCCCCc1cc2cn([C@H]3C[C@H](O)[C@@H](CO)O3)c(=O)nc2[nH]1	HEL	YS/R (TK-)	>50 µM
OC[C@H]1OC(c2c(-c3ccccc3)cc3c(Cl)cc(C(F)(F)F)cn23)[C@H](O)[C@@H]1O	MRC-5	G-31	>40 µM
CCOP(=O)(O)COCCn1cnc2c(=O)[nH]c(N)nc21	HEL	YS (TK+)	0.01 µg/mL
O=C(NCc1ccc(Cl)cc1)c1c[nH]c2ccc(C#CCO)cc2c1=O	-	NAG	0.1 µM
CCCCCCCCCCc1cc2cn([C@H]3C[C@H](O)[C@@H](CO)O3)c(=O)nc2o1	HEL	YS/R (TK-)	>50 µM
CC(C)C[C@H](NC(=O)n1nnc2ccccc21)C(=O)NC1CCCCC1	HEL	07/1 (TK-)	>16 µg/mL
Nc1nccc2c1ncn2C[C@@H](CO)OCP(=O)(O)O	HEL	OKA (TK+)	0.06 µg/mL
Nc1nc2c(ncn2[C@H]2C[C@]23C[C@H]3CO)c(=O)[nH]1	HFF	-	>399 µM
Nc1nc2c(ncn2COC2COP(=O)(O)OC2)c(=O)[nH]1	MRC-5	OKA	0.3–0.6 µM
Nc1ncnc2c1ncn2C[C@@H](CO)OCP(=O)(O)O	WI-38	-	0.6 µM
Nc1nc(=O)n([C@@H]2O[C@H](CO)[C@@H](O)[C@@H]2F)cc1I	MRC-5	CAQU	0.015 µg/mL
CCCCCCCCCCCCc1cc2cn([C@H]3C[C@H](O)[C@@H](CO)O3)c(=O)nc2[nH]1	HEL	YS/R (TK-)	31 µM
Nc1nc2c(ncn2COC(CO)CO)c(=O)[nH]1	VERO	-	3.71 µM
Nc1nc2c(ncn2CCOCP(=O)(O)O)c(=O)[nH]1	HEL	YS (TK+)	0.001 µg/mL
CCCCCCCCCCc1cc2cn([C@H]3C[C@H](O)[C@@H](CO)O3)c(=O)nc2n1CC	HEL	OKA	>5 µM
O=c1[nH]c(=O)n([C@H]2C[C@H](O)[C@@H](COP3(=O)OCc4cccc(-c5ccccc5)c4O3)O2)cc1/C=C/Br	HELF	OKA	0.02 µg/mL
CCC(C)C1NC(=O)N(CC2CCCCC2)C1=O	HEL	07/1 (TK-)	>4 µg/mL
Nc1ncnc2c1ncn2[C@H]1C[C@@]12C[C@@H]2CO	HFF	-	>433 µM
c1ccn2cc(-c3ccoc3)cc2c1	MRC-5	G-31	>40 µM
Nc1nc2ncn(CCOCP(=O)(O)O)c2c(=O)[nH]1	HEL	07/1 (TK-)	0.15 µg/mL
Cc1ccc(OCCCc2cc3cn([C@H]4C[C@H](O)[C@@H](CO)O4)c(=O)nc3o2)cc1	HEL	TK+/YS	11 µM
O=c1[nH]c(=O)n([C@H]2C[C@H](O)[C@@H](CO)O2)cc1/C=C/Br	CCRF-HSV-B	OKA	0.00083 µg/mL
Cc1cn([C@@H]2O[C@H](CO)[C@H]2CO)c(=O)[nH]c1=O	HFF	ELLEN	0.003 µg/mL
O=c1[nH]c(=O)n([C@@H]2O[C@H](CO)[C@@H](O)[C@@H]2F)cc1I	MRC-5	CAQU	0.0015 µg/mL
C#CCCCCCCc1cc2cn([C@H]3C[C@H](O)[C@@H](CO)O3)c(=O)nc2o1	HEL	YS	37 µM
CC[Si]1(C(C)C)O[C@H]2[C@@H](O)[C@H](c3ccccc3)O[C@@H]2CO[Si](C(C)C)(C(C)C)O1	HEL	07/1	>2 µg/mL
C[C@H]1[C@H](O)[C@@H](CO)O[C@H]1n1cc(I)c(N)nc1=O	MRC-5	Kanno-Kohmura	>50 µg/mL
O=c1[nH]c(=O)n(C2C[C@H](CO)[C@H]2CO)cc1C=CBr	WI-38	ITO	0.01–0.05 µM
CCCCOC[C@H]1O[C@@H]2CC(C)(C)C[C@@H]2[C@H]1OCCCC	HEL	07/1	>80 µg/mL
Fc1cccc(-c2cc3ccccn3c2)c1	MRC-5	G-31	>40 µM
C[C@H]1[C@H](O)[C@@H](CO)O[C@H]1n1cc(I)c(=O)[nH]c1=O	MRC-5	CAQU	0.21 µg/mL

Repeating the final 3 entries:

structure | cells | strain or isolate | value
CCCCOC[C@H]1O[C@@H]2CC(C)(C)C[C@@H]2[C@H]1OCCCC | HEL | 07/1 | >80 µg/mL
Fc1cccc(-c2cc3ccccn3c2)c1 | MRC-5 | G-31 | >40 µM
C[C@H]1[C@H](O)[C@@H](CO)O[C@H]1n1cc(I)c(=O)[nH]c1=O | MRC-5 | CAQU | 0.21 µg/mL

Blank or dashed fields: not listed here. ECn is the concentration giving n% inhibition of infection, replication or growth. a–b is a range or a potency band.